{"source": "paper PMC10044114", "about": "“Mechanisms of Antimicrobial Peptides from Bagasse against Human Pathogenic Bacteria” (Antibiotics, 2023)", "assay_in_all_cases": "Shotgun proteomics of peptide-treated bacteria", "key": {"Bacillus subtilis": {"tested_on": "Bacillus subtilis", "format": "cell-based", "settings": "for Differentially expressed proteins shared with ampicillin / Differentially expressed proteins shared with kanamycin / Differentially expressed proteins shared with oxycline / Differentially expressed proteins, unique to peptide treatment: Bacillus subtilis treated 6 h, Venn diagram; for Differentially expressed proteins shared with ampicillin / Differentially expressed proteins shared with kanamycin / Differentially expressed proteins shared with oxycline / Differentially expressed proteins, unique to peptide treatment / Total proteins differentially expressed: LC-MS/MS; for Total proteins differentially expressed: Bacillus subtilis treated 6 h with peptide"}, "P. aeruginosa": {"tested_on": "P. aeruginosa", "format": "cell-based, Pseudomonas aeruginosa", "settings": "for Differentially expressed proteins shared with oxycline / Differentially expressed proteins, unique to peptide treatment: P. aeruginosa treated 6 h, Venn diagram; for Differentially expressed proteins shared with oxycline / Differentially expressed proteins, unique to peptide treatment / Total proteins differentially expressed: LC-MS/MS; for Total proteins differentially expressed: P. aeruginosa treated 6 h with peptide"}, "Burkholderia cepacia": {"tested_on": "Burkholderia cepacia", "format": "cell-based", "settings": "for Differentially expressed proteins shared with kanamycin / Differentially expressed proteins shared with oxycline / Differentially expressed proteins, unique to peptide treatment / Total proteins differentially expressed: LC-MS/MS; for Total proteins differentially expressed: Burkholderia cepacia treated 6 h with peptide"}, "[1]": {"settings": "P. aeruginosa, proteins unique to peptide treatment, UniProt GO classification"}, "[2]": {"settings": "Burkholderia cepacia treated 6 h, Venn diagram"}, "[3]": {"settings": "Burkholderia cepacia, proteins unique to peptide treatment, UniProt GO classification"}}}
{"substance": "NLWSNEINQDMAEF [Peptide no.3, Asn-Leu-Trp-Ser-Asn-Glu-Ile-Asn-Gln-Asp-Met-Ala-Glu-Phe, synthetic peptide from bagasse (AW6) hydrolysate; LRR receptor-like serine/threonine-protein kinase GSO2 fragment]", "values": [{"measurement": "Differentially expressed proteins shared with ampicillin", "setting": "Bacillus subtilis", "result": 4}, {"measurement": "Differentially expressed proteins shared with kanamycin", "setting": "Bacillus subtilis", "result": 6}, {"measurement": "Differentially expressed proteins shared with oxycline", "setting": "Bacillus subtilis", "result": 9}, {"measurement": "Differentially expressed proteins, unique to peptide treatment", "setting": "Bacillus subtilis", "result": 39}, {"measurement": "Total proteins differentially expressed", "setting": "Bacillus subtilis", "result": 99}, {"measurement": "Differentially expressed proteins shared with oxycline", "setting": "P. aeruginosa", "result": 8}, {"measurement": "Differentially expressed proteins, unique to peptide treatment", "setting": "P. aeruginosa", "result": 136}, {"measurement": "Total proteins differentially expressed", "setting": "P. aeruginosa", "result": 198}, {"measurement": "Share of differentially expressed proteins in category regulation of transcription and translation", "setting": "P. aeruginosa; [1]", "result": 28.57, "unit": "%"}, {"measurement": "Differentially expressed proteins shared with kanamycin", "setting": "Burkholderia cepacia; [2]", "result": 422}, {"measurement": "Differentially expressed proteins shared with oxycline", "setting": "Burkholderia cepacia; [2]", "result": 375}, {"measurement": "Differentially expressed proteins, unique to peptide treatment", "setting": "Burkholderia cepacia; [2]", "result": 436}, {"measurement": "Proteins commonly perturbed by peptide no.3, kanamycin, and oxycline", "setting": "Burkholderia cepacia; [2]", "result": 129}, {"measurement": "Proteins commonly perturbed by peptide no.3, no.4, and oxycline", "setting": "Burkholderia cepacia; [2]", "result": 109}, {"measurement": "Total proteins differentially expressed", "setting": "Burkholderia cepacia", "result": 4855}, {"measurement": "Share of differentially expressed proteins related to regulation of transcription", "setting": "Burkholderia cepacia; [3]", "result": 19.86, "unit": "%"}]}
{"substance": "VSNCL [Peptide no.4, Val-Ser-Asn-Cys-Leu, synthetic peptide from bagasse (AW6) hydrolysate; 3-ketoacyl-CoA synthase fragment]", "values": [{"measurement": "Share of differentially expressed proteins related to regulation of transcription", "setting": "Bacillus subtilis; B. subtilis, proteins unique to peptide treatment, UniProt GO classification", "result": 42.31, "unit": "%"}, {"measurement": "Differentially expressed proteins shared with ampicillin", "setting": "Bacillus subtilis", "result": 4}, {"measurement": "Differentially expressed proteins shared with kanamycin", "setting": "Bacillus subtilis", "result": 10}, {"measurement": "Differentially expressed proteins shared with oxycline", "setting": "Bacillus subtilis", "result": 6}, {"measurement": "Differentially expressed proteins, unique to peptide treatment", "setting": "Bacillus subtilis", "result": 43}, {"measurement": "Total proteins differentially expressed", "setting": "Bacillus subtilis", "result": 98}, {"measurement": "Differentially expressed proteins shared with oxycline", "setting": "P. aeruginosa", "result": 7}, {"measurement": "Differentially expressed proteins, unique to peptide treatment", "setting": "P. aeruginosa", "result": 186}, {"measurement": "Total proteins differentially expressed", "setting": "P. aeruginosa", "result": 248}, {"measurement": "Share of differentially expressed proteins related to regulation of transcription", "setting": "P. aeruginosa; [1]", "result": 19.32, "unit": "%"}, {"measurement": "Share of differentially expressed proteins related to the cell membrane", "setting": "P. aeruginosa; [1]", "result": 21.59, "unit": "%"}, {"measurement": "Differentially expressed proteins shared with kanamycin", "setting": "Burkholderia cepacia; [2]", "result": 209}, {"measurement": "Differentially expressed proteins shared with oxycline", "setting": "Burkholderia cepacia; [2]", "result": 327}, {"measurement": "Differentially expressed proteins, unique to peptide treatment", "setting": "Burkholderia cepacia; [2]", "result": 132}, {"measurement": "Proteins commonly perturbed by peptide no.3, no.4, and oxycline", "setting": "Burkholderia cepacia; [2]", "result": 109}, {"measurement": "Proteins commonly perturbed by peptide no.4 and kanamycin", "setting": "Burkholderia cepacia; [2]", "result": 156}, {"measurement": "Total proteins differentially expressed", "setting": "Burkholderia cepacia", "result": 2947}, {"measurement": "Share of differentially expressed proteins related to transmembrane transport", "setting": "Burkholderia cepacia; [3]", "result": 27.66, "unit": "%"}]}
